What was measured:
[1] = biological target: spike protein S1 of SARS-COV-2 (Severe acute respiratory syndrome coronavirus 2, UniProt P0DTC2); type: binding
[2] = biological target: Biotinylated 2019-nCoV (COVID-19) S1 protein (16-685), His, Avitag (Severe acute respiratory syndrome coronavirus 2, UniProt P0DTC2); type: binding, SARS-COV-2; settings: read-out: Geomean Average KD
[3] = biological target: Biotinylated SARS-CoV-2 (COVID-19) S protein RBD, His, Avitag (SARS-CoV-2), P0DTC2; assay: SPR, Biacore T200, geomean
[4] = biological target: Biotinylated 2019-nCoV (COVID-19) S1 protein (16-685), His, Avitag (SARS-CoV-2), P0DTC2; assay: SPR, Biacore T200, geomean
[5] = biological target: SARS-CoV-2 protein used in the SPR assay of Example 2 (not named); assay: SPR

Molecule	pKD [1]	Kd [2]	pKD [5]	further results
Ac-(SEQ ID NO: 93) [BCY16903]	7.92	11.1 nM		
Ac-(SEQ ID NO: 94) [BCY16905]	7.98	10 nM		
Ac-(SEQ ID NO: 97) [BCY16913]	7.77	15.5 nM		
Ac-(SEQ ID NO: 99) [BCY16917]	7.96	10.7 nM		
Ac-(SEQ ID NO: 100) [BCY16918]	7.94	11.3 nM		
Ac-(SEQ ID NO: 101) [BCY16921]	7.85	14 nM		
Ac-(SEQ ID NO: 102) [BCY16912]	7.72	19 nM		
Ac-(SEQ ID NO: 103) [BCY16914]	7.78	16.5 nM		
Ac-(SEQ ID NO: 104) [BCY16916]	7.75	17.9 nM		
Ac-(SEQ ID NO: 105) [BCY16919]	7.68	20.8 nM		
Ac-(SEQ ID NO: 106) [BCY16920]	7.69	20.3 nM		
Ac-(SEQ ID NO: 107) [BCY16902]	7.62	24 nM		
Ac-(SEQ ID NO: 108) [BCY16904]	7.24	58.2 nM		
Ac-(SEQ ID NO: 109) [BCY16907]	7.46	34.4 nM		
Ac-(SEQ ID NO: 110) [BCY16908]	7.47	33.9 nM		
Ac-(SEQ ID NO: 111) [BCY16909]	7.58	26.3 nM		
CPYAPGNGTCLLC (modifications not checked) [BCY19534]				Kd [3]: 5230 nM
CNNPANPVCRFYC (modifications not checked) [BCY16921]			7.85	Kd [4]: 14 nM
CPYNAGTGTCLLC (modifications not checked) [BCY19536]				Kd [3]: 7570 nM
CPYSPGSGTCLLC (modifications not checked) [BCY19542]				Kd [3]: 1950 nM
CMNTDNPVCRFYC (modifications not checked) [BCY16908]			7.47	

Molecule	pKD [1]	Kd [2]	pKD [5]	further results
CKNYDNPVCRFYC (modifications not checked) [BCY16904]			7.24	Kd [4]: 58.2 nM
CLNVDNPVCRFYC (modifications not checked) [BCY16909]			7.58	
CMNPDNPVCRFYC (modifications not checked) [BCY16917]			7.96	Kd [4]: 10.7 nM
CPYREGTGTCLLC (modifications not checked) [BCY19533]				Kd [3]: 6510 nM
CFNIDNPVCRFYC (modifications not checked) [BCY16912]			7.72	Kd [4]: 19 nM
CMNEANPVCRFYC (modifications not checked) [BCY16919]			7.68	
CPHQPGFGTCLLC (modifications not checked) [BCY19541]				Kd [3]: 2170 nM
CENMDNPVCRFYC (modifications not checked) [BCY16907]			7.46	Kd [4]: 34.4 nM
CMNEDNPVCRFYC (modifications not checked) [BCY16916]			7.75	
CHNLDNPVCRFYC (modifications not checked) [BCY16920]			7.69	Kd [4]: 20.3 nM
CANHDNPVCRFYC (modifications not checked) [BCY16902]			7.62	
CPWEAGKGTCLLC (modifications not checked) [BCY19544]				Kd [3]: 6650 nM
CPFKPGVGTCLLC (modifications not checked) [BCY19548]				Kd [3]: 2990 nM
CSNPENPVCRFYC (modifications not checked) [BCY16914]			7.78	Kd [4]: 16.5 nM
CPHMPGSGTCLLC (modifications not checked) [BCY19546]				Kd [3]: 3520 nM
CVNAENPVCRFYC (modifications not checked) [BCY16913]			7.77	Kd [4]: 15.5 nM
CPFPPGMGTCLLC (modifications not checked) [BCY19539]				Kd [3]: 2080 nM
CANPDNPVCRFYC (modifications not checked) [BCY16903]			7.92	
CPHPPGRGTCLLC (modifications not checked) [BCY19535]				Kd [3]: 565 nM
CPYNKGEGTCLLC (modifications not checked) [BCY19547]				Kd [3]: 9160 nM
CYNQENPVCRFYC (modifications not checked) [BCY16918]			7.94	Kd [4]: 11.3 nM
